From patent US20240109955A1 (published 2024)
Where two headings read alike, the source gives them in different places.

How the values were obtained:
Assay in all cases: cell-based or functional assay
[1] = target: T1, SARS-CoV-2 spike (S) protein, Omicron sublineage BA.1.1 (R346K) (SARS-CoV-2, UniProt P0DTC2 14-1273)
[2] = target: SARS-CoV-2 spike (S) protein, Omicron sublineage BA.4.6 (R346T, F486V) (SARS-CoV-2, UniProt P0DTC2 14-1273)
[3] = target: SARS-CoV-2 spike (S) protein, Omicron sublineage BA.4.7 (R346S, F486V) (SARS-CoV-2, UniProt P0DTC2 14-1273)
[4] = target: SARS-CoV-2 spike (S) protein, Omicron sublineage BF.7 (R346T, F486V) (SARS-CoV-2, UniProt P0DTC2 14-1273)
[5] = target: SARS-CoV-2 spike (S) protein, Omicron sublineage BQ 1.1 (R346T, K444T, F486V) (SARS-CoV-2, UniProt P0DTC2 14-1273)
[6] = target: T1, SARS-CoV-2 spike (S) protein, Omicron …; remark: listed apart in the source
[7] = target: SARS-CoV-2 spike (S) protein, Omicron variant B.1.1.529 (SARS-CoV-2, UniProt P0DTC2 14-1273)
[8] = target: SARS-CoV-2 spike protein, Omicron sublineage BF.7 (R346T, F486V) (SARS-CoV-2, UniProt P0DTC2 14-1273)
[9] = target: SARS-CoV-2 spike protein, Omicron sublineage BQ.1.1 (R346T, K444T, F486V) (SARS-CoV-2, UniProt P0DTC2 14-1273)
[10] = target: SARS-CoV-2 spike protein, Omicron sublineage BA.1.1 (R346K) (SARS-CoV-2, UniProt P0DTC2 14-1273)
[11] = target: SARS-CoV-2 spike protein, Omicron sublineage BA.4.6 (R346T, F486V) (SARS-CoV-2, UniProt P0DTC2 14-1273)

Binder | IC80, pseudovirus neutralization [1] [nM] | IC50, pseudovirus neutralization [2] [nM] | IC80, pseudovirus neutralization [2] [nM] | IC50, pseudovirus neutralization [3] [nM] | IC80, pseudovirus neutralization [3] [nM] | IC50, pseudovirus neutralization [4] [nM] | IC80, pseudovirus neutralization [4] [nM] | IC50, pseudovirus neutralization [5] [nM] | IC80, pseudovirus neutralization [5] [µM] | further results
MX829 (bispecific antibody) DIQMTQSPSSVSASVGDRVIITCRASQGISSWLAWYQQKPGKAPKVLIYDASSLQSGVPSRFSGSGYGTDFTLTISSLQPEDSATYYCQQAKSFPITFGQGTRLEIKGGSSGEIVLTQSPGTLSLSPGERATLSCRASQSVSSSYLAWYQQKPGQAPRLLIYSASSRATGIPDRFSGSGSGTDFTLTISRLEPEDFAVYFCQQYVGLTGWTFGQGTKVEIKGGGGSGGSGSGGGGSASGSGQMQLVQSGPEVKKPGTSVKVSCKASGFTFTSSAVQWVRQRQRLEWIGWIVVGSGNTNYAQKFQERVTITRDMSTSTAYMELSSLRSEDTAVYYCAAPNCSNVVCYDGFDIWGQGTMVTVSSGGSSGQVQLVESGGGVVQPGRSLRLSCAASGFTFSSYAFHWVRQAPGKGLEWVAVISYDGSNQYYADSVKGRFTISRDNSKNTLYLQMNSLRADDTAVYYCARDLAIAVAGTWHYYNGMDVWGQGTTVTVSSASGGSGDKTHTCPPCPAPELLGGPSVFLFPPKPKDTLMISRTPEVTCVVVDVSHEDPEVKFNWYVDGVEVHNAKTKPREEQYNSYVVSVLTVLHQDWLNGKEYKCKVSNKALPAPIEKTISKAKGQPREPQVYTLPPSRDELTKNQVSLTCLVKGFYPSDIAVEWESNGQPENNYKTTPPVLDSDGSFFKKLTVDKSRWQQGNVFSCSVLHEALHSHYTQKSLSLSPG | 35.4 | 17.2 | 42.7 | 2.37 | 13 | 3.45 | 22.2 | 1920 | 8.87 | IC50, pseudovirus neutralization [1]: 6.72 nM
MX828 (bispecific antibody) QTVVTQEPSFSVSPGGTVTLTCGLSSGSVSTAYFPSWYQQTPGQAPRTLIYGTNTRSSGVPDRFSGSILGNKAALTITGAQADDESDYYCVLYMGRGIVVFGGGTKLTVLGGSSGEIVLTQSPGTLSLSPGERATLSCRASQSVSSSYLAWYQQKPGQAPRLLIYSASSRATGIPDRFSGSGSGTDFTLTISRLEPEDFAVYFCQQYVGLTGWTFGQGTKVEIKGGGGSGGSGSGGGGSASGSGQMQLVQSGPEVKKPGTSVKVSCKASGFTFTSSAVQWVRQRQRLEWIGWIVVGSGNTNYAQKFQERVTITRDMSTSTAYMELSSLRSEDTAVYYCAAPNCSNVVCYDGFDIWGQGTMVTVSSGGSSGQVQLVESGGGVVQPGRSLRLSCAASGFTLSSYGMHWVRQAPGKGLEWVAVISYDGSNKYYVDSVKGRFTISRDNSKNTLYLQMNSLRAEDTAVYYCRWAYWELLPDYYYGMDVWGQGTTVTVSSASGGSGDKTHTCPPCPAPELLGGPSVFLFPPKPKDTLMISRTPEVTCVVVDVSHEDPEVKFNWYVDGVEVHNAKTKPREEQYNSYVVSVLTVLHQDWLNGKEYKCKVSNKALPAPIEKTISKAKGQPREPQVYTLPPSRDELTKNQVSLTCLVKGFYPSDIAVEWESNGQPENNYKTTPPVLDSDGSFFKKLTVDKSRWQQGNVFSCSVLHEALHSHYTQKSLSLSPG | 6.23 | 124 | 1640 | 143 | 1760 | 356 | 1420 | 375 | 1.13 | 
MX838 (other) chain 1: QTVVTQEPSFSVSPGGTVTLTCGLSSGSVSTAYFPSWYQQTPGQAPRTLIYGTNTRSSGVPDRFSGSILGNKAALTITGAQADDESDYYCVLYMGRGIVVFGGGTKLTVLGGSSGEIVLTQSPGTLSLSPGERATLSCRASQSVSSSYLAWYQQKPGQAPRLLIYSASSRATGIPDRFSGSGSGTDFTLTISRLEPEDFAVYFCQQYGGLTGWTFGQGTKVEIKGGGGSGGSGSGGGGSASGSGQMQLVQSGPEVKKPGTSVKVSCKASGFTFTSSAVQWVRQRQRLEWIGWIVVGSGNTNYAQKFQERVTITRDMSTSTAYMELSSLRSEDTAVYYCAAPNCSNVVCYDGFDIWGQGTMVTVSSGGSSGQVQLVESGGGVVQPGRSLRLSCAASGFTLSSYGMHWVRQAPGKGLEWVAVISYDGSNKYYVDSVKGRFTISRDNSKNTLYLQMNSLRAEDTAVYYCRWAYWELLPDYYYGMDVWGQGTTVTVSSASGGSGDKTHTCPPCPAPELLGGPSVFLFPPKPKDTLMISRTPEVTCVVVDVSHEDPEVKFNWYVDGVEVHNAKTKPREEQYNSYVVSVLTVLHQDWLNGKEYKCKVSNKALPAPIEKTISKAKGQPREPQVYTLPPCRDELTKNQVSLWCLVKGFYPSDIAVEWESNGQPENNYKTTPPVLDSDGSFFKKLTVDKSRWQQGNVFSCSVLHEALHSHYTQKSLSLSPG chain 2: DIQMTQSPSSVSASVGDRVIITCRASQGISSWLAWYQQKPGKAPKVLIYDASSLQSGVPSRFSGSGYGTDFTLTISSLQPEDSATYYCQQAKSFPITFGQGTRLEIKGGSSGEIVLTQSPGTLSLSPGERATLSCRASQSVSSSYLAWYQQKPGQAPRLLIYSASSRATGIPDRFSGSGSGTDFTLTISRLEPEDFAVYFCQQYGGLTGWTFGQGTKVEIKGGGGSGGSGSGGGGSASGSGQMQLVQSGPEVKKPGTSVKVSCKASGFTFTSSAVQWVRQRQRLEWIGWIVVGSGNTNYAQKFQERVTITRDMSTSTAYMELSSLRSEDTAVYYCAAPNCSNVVCYDGFDIWGQGTMVTVSSGGSSGQVQLVESGGGVVQPGRSLRLSCAASGFTFSSYAFHWVRQAPGKGLEWVAVISYDGSNQYYADSVKGRFTISRDNSKNTLYLQMNSLRADDTAVYYCARDLAIAVAGTWHYYNGMDVWGQGTTVTVSSASGGSGDKTHTCPPCPAPELLGGPSVFLFPPKPKDTLMISRTPEVTCVVVDVSHEDPEVKFNWYVDGVEVHNAKTKPREEQYNSYVVSVLTVLHQDWLNGKEYKCKVSNKALPAPIEKTISKAKGQPREPQVCTLPPSRDELTKNQVSLSCAVKGFYPSDIAVEWESNGQPENNYKTTPPVLDSDGSFFLVSKLTVDKSRWQQGNVFSCSVLHEALHSHYTQKSLSLSPG |  |  |  |  |  |  |  |  |  | IC50, pseudovirus neutralization [6]: 1.17 nM; IC80, pseudovirus neutralization [6]: 3.23 nM; IC50, pseudovirus neutralization [7]: 4.3 nM; IC80, pseudovirus neutralization [7]: 9.1 nM
MX837 (other) chain 1: QTVVTQEPSFSVSPGGTVTLTCGLSSGSVSTAYFPSWYQQTPGQAPRTLIYGTNTRSSGVPDRFSGSILGNKAALTITGAQADDESDYYCVLYMGRGIVVFGGGTKLTVLGGSSGEIVLTQSPGTLSLSPGERATLSCRASQSVSSSYLAWYQQKPGQAPRLLIYSASSRATGIPDRFSGSGSGTDFTLTISRLEPEDFAVYFCQQYVGLTGWTFGQGTKVEIKGGGGSGGSGSGGGGSASGSGQMQLVQSGPEVKKPGTSVKVSCKASGFTFTSSAVQWVRQRQRLEWIGWIVVGSGNTNYAQKFQERVTITRDMSTSTAYMELSSLRSEDTAVYYCAAPNCSNVVCYDGFDIWGQGTMVTVSSGGSSGQVQLVESGGGVVQPGRSLRLSCAASGFTLSSYGMHWVRQAPGKGLEWVAVISYDGSNKYYVDSVKGRFTISRDNSKNTLYLQMNSLRAEDTAVYYCRWAYWELLPDYYYGMDVWGQGTTVTVSSASGGSGDKTHTCPPCPAPELLGGPSVFLFPPKPKDTLMISRTPEVTCVVVDVSHEDPEVKFNWYVDGVEVHNAKTKPREEQYNSYVVSVLTVLHQDWLNGKEYKCKVSNKALPAPIEKTISKAKGQPREPQVYTLPPCRDELTKNQVSLWCLVKGFYPSDIAVEWESNGQPENNYKTTPPVLDSDGSFFKKLTVDKSRWQQGNVFSCSVLHEALHSHYTQKSLSLSPG chain 2: DIQMTQSPSSVSASVGDRVIITCRASQGISSWLAWYQQKPGKAPKVLIYDASSLQSGVPSRFSGSGYGTDFTLTISSLQPEDSATYYCQQAKSFPITFGQGTRLEIKGGSSGEIVLTQSPGTLSLSPGERATLSCRASQSVSSSYLAWYQQKPGQAPRLLIYSASSRATGIPDRFSGSGSGTDFTLTISRLEPEDFAVYFCQQYVGLTGWTFGQGTKVEIKGGGGSGGSGSGGGGSASGSGQMQLVQSGPEVKKPGTSVKVSCKASGFTFTSSAVQWVRQRQRLEWIGWIVVGSGNTNYAQKFQERVTITRDMSTSTAYMELSSLRSEDTAVYYCAAPNCSNVVCYDGFDIWGQGTMVTVSSGGSSGQVQLVESGGGVVQPGRSLRLSCAASGFTFSSYAFHWVRQAPGKGLEWVAVISYDGSNQYYADSVKGRFTISRDNSKNTLYLQMNSLRADDTAVYYCARDLAIAVAGTWHYYNGMDVWGQGTTVTVSSASGGSGDKTHTCPPCPAPELLGGPSVFLFPPKPKDTLMISRTPEVTCVVVDVSHEDPEVKFNWYVDGVEVHNAKTKPREEQYNSYVVSVLTVLHQDWLNGKEYKCKVSNKALPAPIEKTISKAKGQPREPQVCTLPPSRDELTKNQVSLSCAVKGFYPSDIAVEWESNGQPENNYKTTPPVLDSDGSFFLVSKLTVDKSRWQQGNVFSCSVLHEALHSHYTQKSLSLSPG |  |  |  |  |  |  |  |  |  | IC50, pseudovirus neutralization [8]: 40.5 nM; IC80, pseudovirus neutralization [8]: 125 nM; IC50, pseudovirus neutralization [9]: 4.11 µM; IC80, pseudovirus neutralization [9]: 4.63 µM; IC50, pseudovirus neutralization [10]: 9.72 nM; IC80, pseudovirus neutralization [10]: 11.4 nM; IC50, pseudovirus neutralization [11]: 32.9 nM; IC80, pseudovirus neutralization [11]: 95.5 nM
